Results of unrelated studies side by side (data: NIAID ChemDB).

Shared fields: whole-cell or culture tests; agent: Varicella zoster virus; method: plaque count; endpoint: EC50

Conditions beyond the fields shown may differ between rows. Blank or dashed fields: not listed here. a–b is a range or a potency band. ECn: concentration that inhibits the pathogen or its effect by n%.

SMILES,strain,cells,result
CCCCCCCc1cc2cn([C@H]3C[C@H](O)[C@@H](CO)O3)c(=O)nc2o1,OKA,HEL,0.12 µM
C=Cc1cc([C@H]2C[C@H](O)[C@@H](CO)O2)c(F)cc1F,07/1 (TK-),HEL,>200 µM
CCCCCC#Cc1c[nH]c(=O)[nH]c1=O,OKA,HEL,>80 µM
O=c1nc2oc(CCCCCCCCCCl)cc2cn1[C@H]1C[C@H](O)[C@@H](CO)O1,OKA,HEL,0.04 µM
O=c1[nH]c(=O)n([C@H]2C[C@H](O)[C@@H](CO)O2)cc1-c1ccc(Br)s1,13 isolates,HEL,0.2 µM
O=c1[nH]c(=O)n([C@H]2C[C@H](O)[C@@H](CO)O2)cc1-c1cc(Br)no1,OKA,HEL,0.09 µg/mL
CCCCc1ccc(-c2cc3cn(C4CC[C@@H](CO)O4)c(=O)nc3o2)cc1,YS/R (TK-),HEL,>5 µM
O=c1[nH]c(=O)n([C@H]2C[C@H](O)[C@@H](CO)O2)cc1/C=C/Cl,YS/R (TK-),HEL,>138 µM
Nc1nc2c(ncn2[C@H]2CCC[C@H]2CO)c(=O)[nH]1,YS/R (TK-),HEL,>50 µg/mL
CCCCCCOc1ccc(-c2cc3cn([C@H]4C[C@H](O)[C@@H](CO)O4)c(=O)nc3o2)cc1,OKA,HEL,0.0015 µM
O=c1[nH]c(=O)n([C@@H]2O[C@H](CO)[C@@H](O)[C@@H]2O)cc1/C=C/Br,YS/R (TK-),HEL,>57 µM
O=c1[nH]c(=O)n([C@H]2C[C@H](O)[C@@H](CO)O2)cc1/C=C/Br,CAQU,HEF,0.008 µg/mL
CC1(C)[C@H](CCO)C[C@@H]1n1cnc2c(=O)[nH]cnc21,07/1 (TK-),-,>50 µg/mL
CCOc1ccc(-c2cc3cn([C@H]4C[C@H](O)[C@@H](CO)O4)c(=O)nc3o2)cc1,07/1 (TK-),HEL,45 µM
O=c1[nH]c(=O)n([C@H]2C[C@H](O)[C@@H](CO)O2)cc1/C=C/I,Kanno-Kohmura (TK-),HEF,≥56 µg/mL
OC[C@H]1O[C@@H](c2cc(C#CI)c(F)cc2F)C[C@@H]1O,OKA,HEL,>20 µM
O=c1[nH]c(=O)n([C@@H]2O[C@H](CO)[C@@H](O)[C@@H]2O)cc1I,OKA,CCRF-HSB-2,70 µM
Nc1nc2c(ncn2C[C@]2(CO)C[C@H]2CO)c(=O)[nH]1,Kawaguchi,HEL,0.67 µg/mL
O=C(O)CP(=O)(O)O,OKA-H12,HEL,7.4 µg/mL
COc1ccc(CSCc2cnc3c(Br)cc(Br)c(C)n23)cc1,YS (TK+),HEL,>20 µg/mL
O=C(NCc1ccc(Cl)cc1)c1cn(N2CCOCC2)c2ccc(CN3CCOCC3)cc2c1=O,Webster,HFF,0.4 µM
Cc1c(Br)cc(Br)c2ncc(CSCc3ccccc3Cl)n12,07/1 (TK-),HEL,>5 µg/mL
CCCCCCc1cc2cn([C@H]3C[C@H](O)[C@@H](CO)O3)c(=O)nc2[nH]1,YS,HEL,>50 µM
Nc1ncc2ncn([C@H]3CCC[C@H]3CO)c2n1,07/1 (TK-),HEL,>20 µg/mL
COc1ccc2c(c1)OC1(C=C2)N(C)c2ccc(Cl)cc2C1(C)C,YS (TK+),HEL,4.4 µM
CCCOc1ccc(-c2cc3cn([C@H]4C[C@H](O)[C@@H](CO)O4)c(=O)nc3o2)cc1,07/1 (TK-),HEL,9.5 µM
CCCCCCCCCCCc1cc2cn([C@H]3C[C@H](O)[C@@H](CO)O3)c(=O)nc2o1,OKA,HEL,0.4 µM
O=C(NCc1ccc(Cl)cc1)c1c[nH]c2ccc(CCCO)cc2c1=O,STE,-,0.1 µM
CCCCCc1ccc(-c2cc3cn(C4CC[C@@H](CO)O4)c(=O)nc3o2)cc1,OKA (TK+),HEL,2.5 µM
Nc1ncnc2c1ncn2C[C@@H](CO)OCP(=O)(O)O,OKA (TK+),HEL,0.034 µM
CCCCCCCCCCc1cc2cn([C@H]3C[C@H](O)[C@@H](CO)O3)c(=O)nc2n1CC,YS/R (TK-),HEL,>5 µM
O=c1[nH]c(=O)n([C@H]2C[C@H](O)[C@@H](CO)O2)cc1I,Kanno-Kohmura (TK-),HEF,17 µg/mL
CCCCCCCC#Cc1cn(S(=O)(=O)c2ccc(C)cc2)c(=O)[nH]c1=O,07/1,HEL,>16 µM
CCCCCCCCCCCCc1cc2cn([C@H]3C[C@H](O)[C@@H](CO)O3)c(=O)nc2[nH]1,OKA,HEL,2.4 µM
Nc1nc(=O)n([C@H]2C[C@H](O)[C@@H](CO)O2)cc1/C=C/Cl,YS/R (TK-),HEL,>145 µM
Nc1nc(N)c2ncn([C@H]3CCC[C@H]3CO)c2n1,OKA (TK+),HEL,>50 µg/mL
OC[C@H]1O[C@@H](c2cc(C#CBr)c(F)cc2F)C[C@@H]1O,YS/R (TK-),HEL,>50 µM
CC1(C)c2ccccc2N(c2ccccc2)C12C=Nc1c(ccc3ccccc13)O2,07/1 (TK-),HEL,>8.2 µM
O=c1[nH]c(=O)n([C@H]2C[C@H](O)[C@@H](CO)O2)cc1I,3,HEL,0.78 µg/mL
OC[C@H]1O[C@@H](c2cc(C(O)CI)c(F)cc2F)C[C@@H]1O,YS (TK+),HEL,126 µg/mL
Cc1cn([C@@H]2O[C@H](CO)[C@@H](O)[C@@H]2O)c(=O)[nH]c1=O,OKA,CCRF-HSB-2,1.43 µM
CCCCCCCCCCc1cc2cn([C@H]3C[C@H](O)[C@@H](CO)O3)c(=O)nc2n1C,YS,HEL,8 µM
NC1=NS(=O)(=O)N(Cc2ccccc2)c2nc(-c3ccc(Cl)cc3)[nH]c21,YS,HEL,4.1 µg/mL
CCCCCCCCCCc1cc2cn([C@H]3C[C@H](O)[C@@H](CO)O3)c(=O)nc2n1CCC,YS,HEL,>5 µM
CC#Cc1cn([C@@H]2O[C@H](CO)[C@@H](O)[C@@H]2O)c(=O)[nH]c1=O,07/1 (TK-),HEL,>177 µM
Cc1c(Br)cc(Br)c2ncc(CSCc3ccco3)n12,YS/R (TK-),HEL,11 µg/mL
c1ccc(-c2cc3ccccn3c2)cc1,G-31,MRC-5,20 µM
Cc1c(Br)cc(Br)c2ncc(CSCc3ccc(Cl)cc3Cl)n12,YS/R (TK-),HEL,2.9 µg/mL
Brc1sccc1-c1cc2ccccn2c1,G-31,MRC-5,10 µM
NC1=NS(=O)(=O)N(Cc2ccccc2)c2nc[nH]c21,YS/R (TK-),HEL,>50 µg/mL
Nc1nc2c(ncn2COCCO)c(=O)[nH]1,07/1 (TK-),HEL,53.3 µM
Brc1ccc2cc(-c3ccccc3)cn2c1,G-31,MRC-5,12–50 µM
Nc1ccn(CSC(CO)CO)c(=O)n1,6350,MRC-5,>50 µM
CCCCCCCCCCCCc1cc2cn([C@H]3C[C@H](O)[C@@H](CO)O3)c(=O)nc2[nH]1,07/1 (TK-),HEL,76 µM
CCCCCCCCCCCCc1cc2cn([C@H]3C[C@H](O)[C@@H](CO)O3)c(=O)nc2s1,OKA,HEL,0.2 µM
Cc1c(Br)cc(Br)c2ncc(CSCc3ccc(Cl)cc3)n12,YS (TK+),HEL,3.2 µg/mL
CCc1cn([C@@H]2O[C@H](CO)[C@@H](O)[C@@H]2F)c(=O)[nH]c1=O,OKA,CCRF-HSB-2,1.09 µM
NC1=NC2C(C=CN2CC(CO)CCO)C(=O)N1,YS (TK+),HEL,0.018 µM
CC1(C)[C@H](CCO)C[C@@H]1n1cnc2c(Cl)ncnc21,07/1 (TK-),-,>50 µg/mL
CCCCCCCCCCC#Cc1c[nH]c(=O)[nH]c1=O,OKA,HEL,>80 µM
OC[C@H]1O[C@@H](c2cc(C(O)C(Br)Br)c(F)cc2F)C[C@@H]1O,YS/R (TK-),HEL,126 µg/mL
CN1c2ccc(Cl)cc2C(C)(C)C12C=Cc1cc([N+](=O)[O-])ccc1O2,YS (TK+),HEL,2.7 µM
CCCCCCCC#Cc1c[nH]c(=O)[nH]c1=O,OKA,HEL,37 µM
Fc1ccc2cc(-c3ccccc3)cn2c1,G-31,MRC-5,>50 µM
Nc1nc2c(ncn2COC(CO)CO)c(=O)[nH]1,07/1 (TK-),HEL,12.2 µM
COc1ccc2c(c1)OC1(C=C2)N(C)c2ccccc2C1(C)C,OKA (TK+),HEL,6 µM
CCCc1ccc(-c2cc3cn(C4CC[C@@H](CO)O4)c(=O)nc3o2)cc1,YS/R (TK-),HEL,>50 µM
Cc1c(Br)cc(Br)c2ncc(CSCCCc3ccccc3)n12,YS (TK+),HEL,4 µg/mL
CCCCCCCCc1cc2cnc(=O)[nH]c2o1,OKA,HEL,>80 µM
CC1(C)[C@H](CCO)C[C@@H]1n1nnc2c(N)ncnc21,YS (TK+),-,3.5 µg/mL

For reference, 4 entries again:

SMILES | strain | cells | result
CCCCCCCC#Cc1cn(S(=O)(=O)c2ccc(C)cc2)c(=O)[nH]c1=O | 07/1 | HEL | >16 µM
CCOc1ccc(-c2cc3cn([C@H]4C[C@H](O)[C@@H](CO)O4)c(=O)nc3o2)cc1 | 07/1 (TK-) | HEL | 45 µM
O=c1[nH]c(=O)n([C@@H]2O[C@H](CO)[C@@H](O)[C@@H]2O)cc1I | OKA | CCRF-HSB-2 | 70 µM
Nc1nc2c(ncn2COCCO)c(=O)[nH]1 | 07/1 (TK-) | HEL | 53.3 µM